A mixed list of measured activities; the numbers were collected in NIAID ChemDB.

All rows: tests in culture; organism: Aspergillus fumigatus; endpoint: zone

Rows are shuffled and stem from different studies.

SMILES	dose	strain or isolate	method	result
COc1ccccc1CN(CC(O)C[N+](C)(C)C)[C@@H]1[C@@H](O)[C@H](O[C@@H]2O[C@H](COCC(=O)O)[C@@H](O[C@@H]3C[C@H](COCC(=O)O)[C@@H](C)[C@H](O)[C@H]3N(Cc3ccccc3OC)CC(O)C[N+](C)(C)C)[C@H](O)[C@H]2N(Cc2ccccc2OC)CC(O)C[N+](C)(C)C)[C@@H](COCC(=O)O)O[C@H]1C	1 mg/mL	RCMB 02568	agar diffusion	17.2 mm
CCC(C)CCCCCCCCCCC(=O)N[C@H]1C[C@@H](O)[C@@H](OC)NC(=O)C2[C@@H](O)[C@@H](C)CN2C(=O)C(CO)NC(=O)C([C@H](O)C(OC)c2ccc(O)cc2)NC(=O)NC(=O)[C@@H]2C[C@@H](O)CN2C(=O)[C@H]([C@@H](C)O)NC1=O	5 mg/mL	AF-1	agar	30 mm
CC(=O)N1CCN(c2nc(Nc3ccc(C#N)c(C(F)(F)F)c3)nc(Oc3cccc4cccnc34)n2)CC1	100 µg/disc	MTCC 343	agar diffusion / agar	23 mm
CCOC(=O)c1ccc(-c2nn(-c3ccccc3)cc2-c2ccc([N+](=O)[O-])cc2)nc1C	2.5 mg/mL	-	agar diffusion / agar	4 mm
CC(C)N1CCN(c2nc(Nc3ccc(C#N)c(C(F)(F)F)c3)nc(Oc3cccc4cccnc34)n2)CC1	100 µg/disc	MTCC 343	agar diffusion / agar	21 mm
CCC(C)CCCCCCCCCCC(=O)N[C@H]1C[C@@H](O)[C@@H](NCCN2CCOCC2)NC(=O)C2[C@@H](O)[C@@H](C)CN2C(=O)C(CO)NC(=O)C([C@H](O)C(O)c2ccc(O)cc2)NC(=O)NC(=O)[C@@H]2C[C@@H](O)CN2C(=O)[C@H]([C@@H](C)O)NC1=O	5 mg/mL	AF-1	agar	24 mm
C[C@@H]1[C@@H](COCC(=O)O)C[C@@H](O[C@H]2[C@H](O)[C@@H](N(Cc3ccccc3)CC(O)C[N+](C)(C)C)[C@H](O[C@H]3[C@H](O)[C@@H](N(Cc4ccccc4)CC(O)C[N+](C)(C)C)[C@H](C)O[C@@H]3COCC(=O)O)O[C@@H]2COCC(=O)O)[C@H](N(Cc2ccccc2)CC(O)C[N+](C)(C)C)[C@H]1O	1 mg/mL	RCMB 02568	agar diffusion	15.2 mm
CN1CCN(c2nc(Nc3ccc(C#N)c(C(F)(F)F)c3)nc(Oc3cccc4cccnc34)n2)CC1	100 µg/disc	MTCC 343	agar diffusion / agar	20 mm
CCOC(=O)C1=NN(c2ccccc2)C2=Nc3nccc(-c4nn(-c5ccccc5)cc4-c4ccc([N+](=O)[O-])cc4)c3C(=O)C12	1.25 mg/mL	-	agar diffusion / agar	2 mm
COC(=O)N[C@H](C(=O)NN(CC[C@@]1(Cc2ccccc2)C(=O)N(C2c3ccccc3C[C@H]2O)C[C@@H]1O)Cc1ccc(Br)cc1)C(C)(C)C	10 mg/mL	RCMB 002003	agar diffusion / agar	18.8 mm
CN(C)/C=C/C(=O)c1nn(-c2ccccc2)cc1-c1ccc([N+](=O)[O-])cc1	1.25 mg/mL	-	agar diffusion / agar	3 mm
C[C@@H]1[C@@H](COCC(=O)O)C[C@@H](O[C@H]2[C@H](O)[C@@H](N(Cc3ccc(Br)cc3)CC(O)C[N+](C)(C)C)[C@H](O[C@H]3[C@H](O)[C@@H](N(Cc4ccc(Br)cc4)CC(O)C[N+](C)(C)C)[C@H](C)O[C@@H]3COCC(=O)O)O[C@@H]2COCC(=O)O)[C@H](N(Cc2ccc(Br)cc2)CC(O)C[N+](C)(C)C)[C@H]1O	1 mg/mL	RCMB 02568	agar diffusion	18.6 mm
CCC(C)CCCCCCCCCCC(=O)N[C@H]1C[C@@H](O)[C@@H](O)NC(=O)C2[C@@H](O)[C@@H](C)CN2C(=O)C(CO)NC(=O)C([C@H](O)C(O)c2ccc(O)cc2)NC(=O)NC(=O)[C@@H]2C[C@@H](O)CN2C(=O)[C@H]([C@@H](C)O)NC1=O	0.1 mg/mL	AF-1	agar	24 mm
N#Cc1ccc(Nc2nc(Oc3cccc4cccnc34)nc(N3CCN(c4cccc(Cl)c4)CC3)n2)cc1C(F)(F)F	100 µg/disc	MTCC 343	agar diffusion / agar	23 mm
CCOC(=O)C[C@H](O)C[C@H](O)CC[C@@H]1[C@@H]2C(=CCC[C@@H]2C(=O)O[C@H](C)CC)C=C[C@@H]1C	10 mg/disc	-	agar diffusion	0 mm
Cc1ccc(-n2cc(-c3ccc([N+](=O)[O-])cc3)c(C(=O)/C=C/N(C)C)n2)cc1	5 mg/mL	-	agar diffusion / agar	8 mm
C[C@@H]1[C@@H](COCC(=O)O)C[C@@H](O[C@H]2[C@H](O)[C@@H](N(Cc3cccs3)CC(O)C[N+](C)(C)C)[C@H](O[C@H]3[C@H](O)[C@@H](N(Cc4cccs4)CC(O)C[N+](C)(C)C)[C@H](C)O[C@@H]3COCC(=O)O)O[C@@H]2COCC(=O)O)[C@H](N(Cc2cccs2)CC(O)C[N+](C)(C)C)[C@H]1O	1 mg/mL	RCMB 02568	agar diffusion	19.2 mm
CCC(C)CCCCCCCCCCC(=O)N[C@H]1C[C@@H](O)[C@@H]([n+]2cc[nH]c2)NC(=O)C2[C@@H](O)[C@@H](C)CN2C(=O)C(CO)NC(=O)C([C@H](O)C(O)c2ccc(O)cc2)NC(=O)NC(=O)[C@@H]2C[C@@H](O)CN2C(=O)[C@H]([C@@H](C)O)NC1=O	1 mg/mL	AF-1	agar	20 mm
COC(=O)N[C@H](C(=O)NN(CC[C@@]1(Cc2ccccc2)C(=O)N(C2c3ccccc3C[C@H]2O)C[C@H]1O)Cc1ccc(-c2ccccn2)cc1)C(C)(C)C	10 mg/mL	RCMB 002003	agar diffusion / agar	18.8 mm
O=C(c1cn2cnnc2nn1)c1nn(-c2ccccc2)cc1-c1ccc([N+](=O)[O-])cc1	2.5 mg/mL	-	agar diffusion / agar	7 mm
COc1cc(CN(CC(O)C[N+](C)(C)C)[C@@H]2[C@@H](O)[C@H](O[C@@H]3O[C@H](COCC(=O)O)[C@@H](O[C@@H]4C[C@H](COCC(=O)O)[C@@H](C)[C@H](O)[C@H]4N(Cc4ccc(O)c(OC)c4)CC(O)C[N+](C)(C)C)[C@H](O)[C@H]3N(Cc3ccc(O)c(OC)c3)CC(O)C[N+](C)(C)C)[C@@H](COCC(=O)O)O[C@H]2C)ccc1O	1 mg/mL	RCMB 02568	agar diffusion	17.5 mm
COC(=O)N[C@H](C(=O)NN(CC[C@@]1(Cc2ccccc2)C(=O)N(C2c3ccccc3C[C@H]2O[Si](C)(C)C(C)(C)C)C[C@@H]1O[Si](C)(C)C(C)(C)C)Cc1ccc(Br)cc1)C(C)(C)C	10 mg/mL	RCMB 002003	agar diffusion / agar	18.8 mm
C[C@@H]1[C@@H](COCC(=O)O)C[C@@H](O[C@H]2[C@H](O)[C@@H](N(Cc3ccc(Cl)cc3)CC(O)C[N+](C)(C)C)[C@H](O[C@H]3[C@H](O)[C@@H](N(Cc4ccc(Cl)cc4)CC(O)C[N+](C)(C)C)[C@H](C)O[C@@H]3COCC(=O)O)O[C@@H]2COCC(=O)O)[C@H](N(Cc2ccc(Cl)cc2)CC(O)C[N+](C)(C)C)[C@H]1O	1 mg/mL	RCMB 02568	agar diffusion	16.3 mm
COC(=O)N[C@H](C(=O)NN(CCC[C@@]1(Cc2ccccc2)C(=O)N(C2c3ccccc3C[C@H]2O)C[C@H]1O)Cc1ccc(Br)cc1)C(C)(C)C	10 mg/mL	RCMB 002003	agar diffusion / agar	18.8 mm
CCC(C)CCCCCCCCCCC(=O)N[C@H]1C[C@@H](O)[C@@H](S(=O)(=O)CC(=O)OC)NC(=O)C2[C@@H](O)[C@@H](C)CN2C(=O)C(CO)NC(=O)C([C@H](O)C(O)c2ccc(O)cc2)NC(=O)NC(=O)[C@@H]2C[C@@H](O)CN2C(=O)[C@H]([C@@H](C)O)NC1=O	5 mg/mL	AF-1	agar	27 mm
COC(=O)N[C@H](C(=O)NN(CC[C@]1(Cc2ccccc2)C(=O)N(C2c3ccccc3C[C@H]2O)C[C@H]1O)Cc1ccc(Br)cc1)C(C)(C)C	10 mg/mL	RCMB 002003	agar diffusion / agar	18.8 mm
CCC(C)CCCCCCCCCCC(=O)N[C@H]1C[C@@H](O)[C@@H](SCC(=O)OC)NC(=O)C2[C@@H](O)[C@@H](C)CN2C(=O)C(CO)NC(=O)C([C@H](O)C(O)c2ccc(O)cc2)NC(=O)NC(=O)[C@@H]2C[C@@H](O)CN2C(=O)[C@H]([C@@H](C)O)NC1=O	2 mg/mL	AF-1	agar	24 mm

Repeating the first 4 entries:

SMILES,dose,strain or isolate,method,result
COc1ccccc1CN(CC(O)C[N+](C)(C)C)[C@@H]1[C@@H](O)[C@H](O[C@@H]2O[C@H](COCC(=O)O)[C@@H](O[C@@H]3C[C@H](COCC(=O)O)[C@@H](C)[C@H](O)[C@H]3N(Cc3ccccc3OC)CC(O)C[N+](C)(C)C)[C@H](O)[C@H]2N(Cc2ccccc2OC)CC(O)C[N+](C)(C)C)[C@@H](COCC(=O)O)O[C@H]1C,1 mg/mL,RCMB 02568,agar diffusion,17.2 mm
CCC(C)CCCCCCCCCCC(=O)N[C@H]1C[C@@H](O)[C@@H](OC)NC(=O)C2[C@@H](O)[C@@H](C)CN2C(=O)C(CO)NC(=O)C([C@H](O)C(OC)c2ccc(O)cc2)NC(=O)NC(=O)[C@@H]2C[C@@H](O)CN2C(=O)[C@H]([C@@H](C)O)NC1=O,5 mg/mL,AF-1,agar,30 mm
CC(=O)N1CCN(c2nc(Nc3ccc(C#N)c(C(F)(F)F)c3)nc(Oc3cccc4cccnc34)n2)CC1,100 µg/disc,MTCC 343,agar diffusion / agar,23 mm
CCOC(=O)c1ccc(-c2nn(-c3ccccc3)cc2-c2ccc([N+](=O)[O-])cc2)nc1C,2.5 mg/mL,-,agar diffusion / agar,4 mm

Blank or dashed fields: not listed here. Zones are inhibition diameters on agar.